Compound potency records, mixed from different reports. Data source: NIAID ChemDB in PubChem.

Common to all: growth or infection tests; species: Human cytomegalovirus; cell line: MRC-5; read-out: EC50

Conditions beyond the fields shown may differ between rows. ECn is the concentration giving n% inhibition of infection, replication or growth.

CC#Cc1cn([C@@H]2O[C@H](COP(=O)(O)Oc3ccc(OC)cc3)[C@@H](O)[C@@H]2O)c(=O)[nH]c1=O ; strain: AD169 ; method: plaque count ; value: >100 µM
CC(C)Oc1ccccc1CNC(=O)c1ccc2cnccc2n1 ; strain: C8805-37 ; method: plaque count ; value: 0.02 µM
Nc1nc2c(ncn2COC(CO)CO)c(=O)[nH]1 ; strain: AD169 ; method: plaque count ; value: 0.9 µM
CC(C)Nc1nc2cc(Cl)c(Cl)cc2n1[C@H]1O[C@@H](CO)[C@H](O)[C@@H]1O ; strain: C8302 ; method: hybridisation ; value: 0.1 µM
O=C(O)P(=O)(O)O ; strain: AD169 (ganciclovir foscarnet-susceptible) ; method: plaque count ; value: 65.66 µM
Nc1nc2c(ncn2COC2CCP(=O)([O-])OC2)c(=O)[nH]1 ; strain: AD169 ; method: plaque count ; value: 5 µg/mL
O=c1[nH]c(=S)n([C@@H]2O[C@H](CO)[C@@H](O)[C@@H]2O)cc1/C=C/c1ccccc1 ; strain: AD169 ; method: plaque count ; value: >213 µM
CCCCCCCCCCCCCCCCCCOCCOP(=O)(O)CO[C@H](CO)Cn1ccc(N)nc1=O ; strain: C8805/37-1-1 (drug-resistant mutant) ; method: plaque count ; value: 0.00095 µM
OC[C@H]1O[C@@H](n2c(Br)nc3cc(Cl)c(Cl)cc32)[C@H](O)[C@@H]1O ; strain: 1038RB ; method: plaque count ; value: 20 µM
CCOP(=O)(O)CCC(CO)OCn1cnc2c(=O)[nH]c(N)nc21 ; strain: AD169 ; method: plaque count ; value: 7 µg/mL
CCCCCCCCCCCCCCCCOCCCOP(=O)(O)CO[C@H](CO)Cn1ccc(N)nc1=O ; strain: 759D100 drug-resistant mutant ; method: plaque count ; value: 0.0065 µM
O=C(NCCc1ccccc1)C1=Cc2ccncc2CC1 ; strain: AD169 ; method: plaque count ; value: 13.6 µM
OC[C@H]1OC(c2c(-c3ccccc3)cc3c(Cl)cc(C(F)(F)F)cn23)[C@H](O)[C@@H]1O ; strain: AD169 ; method: plaque count ; value: >20 µM
C=Cc1cn([C@@H]2O[C@H](CO)[C@@H](O)[C@@H]2O)c(=S)nc1N ; strain: AD169 ; method: plaque count ; value: >266.3 µM
c1ccn2cc(-c3ccsc3)cc2c1 ; strain: AD169 ; method: plaque count ; value: >100 µM
Nc1ccn(C[C@@H](CO)OCP(=O)(O)O)c(=O)n1.O=C(O)P(=O)(O)O ; strain: AD169 (ganciclovir foscarnet-susceptible) ; method: plaque count ; value: 1.08 µM
Nc1nc(=S)n([C@@H]2O[C@H](CO)[C@@H](O)[C@@H]2O)cc1CO ; strain: 93-1R ; method: plaque count ; value: 98.8 µM
Nc1nc2c(ncn2C[C@@H]2CC[C@@H](P(=O)(O)O)O2)c(=O)[nH]1 ; strain: D16 (ganciclovir-resistant) ; method: plaque count ; value: 0.4 µg/mL
c1ccn2cc(-c3cncs3)cc2c1 ; strain: AD169 ; method: plaque count ; value: >100 µM
CC#Cc1cn([C@@H]2O[C@H](COP(=O)(O)Oc3ccccc3Cl)[C@@H](O)[C@@H]2O)c(=O)[nH]c1=O ; strain: AD169 ; method: plaque count ; value: >100 µM
Nc1nc2c(ncn2COC(CO)CO)c(=O)[nH]1 ; strain: AD169 ; method: ELISA ; value: 2.7 µM
CC#Cc1cn([C@@H]2O[C@H](COP(=O)(NCCCCCCCCCCCC)Oc3ccccc3)[C@@H](O)[C@@H]2O)c(=O)[nH]c1=O ; strain: AD169 ; method: plaque count ; value: >10 µM
CCCCCCCCCCCCCCCCOCCCOP(=O)(O)OCC(CO)OCn1cnc2c(=O)[nH]c(N)nc21 ; strain: AD169 ; value: 0.6 µM
COc1ccccc1CNC(=O)C1=Cc2ccncc2CC1 ; strain: D16 ; method: plaque count ; value: 23.7 µM
CC#Cc1cn([C@@H]2O[C@H](COP(=O)(N[C@H](C(=O)OC)C(C)C)Oc3ccccc3)[C@@H](O)[C@@H]2O)c(=O)[nH]c1=O ; strain: AD169 ; method: plaque count ; value: >100 µM
Nc1nc2c(ncn2COC(CO)CO)c(=O)[nH]1 ; strain: AD169 ; method: ELISA ; value: 2.7 µM
O=c1[nH]c(=O)n([C@@H]2O[C@H](CO)[C@@H](O)[C@@H]2F)cc1I ; strain: AD169 ; method: plaque count ; value: 2.4 µg/mL
CCOP(=O)([O-])CCC(CO)OCn1cnc2c(=O)[nH]c(N)nc21 ; strain: C8704 ; method: plaque count ; value: 32 µg/mL
Nc1ccn(C[C@@H](CO)OCP(=O)(O)O)c(=O)n1 ; strain: PAAR ; method: plaque count ; value: 0.61 µM
CCCc1cn([C@H]2C[C@H](O)[C@@H](CO)O2)c(=S)nc1N ; strain: T-137 ; method: plaque count ; value: >277.4 µM
C[C@H]1[C@H](O)[C@@H](CO)O[C@H]1n1cc(I)c(=O)[nH]c1=O ; strain: AD169 ; method: plaque count ; value: >61.27 µg/mL
CCCCN1C(=O)c2ccccc2N(C(=O)c2ccccc2)S1(=O)=O ; strain: AD169 ; method: plaque count ; value: 24.6 µM
O=C1NCc2ccccc2OCC/C=C/c2cncc3ccc1nc23 ; strain: D16 (ganciclovir-resistant UL54 mutant) ; method: plaque count ; value: 0.0056 µg/mL
CCCCCCCCCCCCCCCCCCOCCOP1(=O)CO[C@@H](Cn2ccc(N)nc2=O)CO1 ; strain: 759D100 drug-resistant mutant ; method: plaque count ; value: 0.015 µM
Nc1nc(=S)n([C@@H]2O[C@H](CO)[C@@H](O)[C@@H]2O)cc1/C=C/Br ; strain: T-137 ; method: plaque count ; value: >213 µM
Nc1nc2c(ncn2COC(CO)CO)c(=O)[nH]1 ; strain: DAVIS ; method: plaque count ; value: 4.9 µM
CCCCN1C(=O)c2ccccc2N(Cc2ccc(OC)cc2)S1(=O)=O ; strain: AD169 ; method: plaque count ; value: 4.7 µM
CC(O)c1cn([C@@H]2O[C@H](CO)[C@@H](O)[C@@H]2O)c(=S)nc1N ; strain: 93-1R ; method: plaque count ; value: 111.8 µM
CC(C)CN1C(=O)c2ccccc2N(Cc2ccc(Cl)cc2)S1(=O)=O ; strain: AD169 ; method: plaque count ; value: 18.4 µM
CC(O)c1cn([C@@H]2O[C@H](CO)[C@@H](O)[C@@H]2O)c(=S)[nH]c1=O ; strain: AD169 ; method: plaque count ; value: >213 µM
Nc1nc2c(ncn2COC(COP(=O)(O)O)COP(=O)(O)O)c(=O)[nH]1 ; strain: DAVIS ; method: plaque count ; value: 6.1 µM
Nc1nc2c(ncn2COC(CO)CO)c(=O)[nH]1 ; strain: C8501 ; method: plaque count ; value: 1 µM
COC(=O)c1cccn2cc(-c3ccccc3)cc12 ; strain: AD169 ; method: plaque count ; value: >100 µM
NC1=NCCN1CC(=O)O ; strain: C8704 (ganciclovir-resistant) ; method: plaque count ; value: 10300 µM
Nc1nc2c(ncn2COC(CO)CO)c(=O)[nH]1 ; strain: PAAR ; method: plaque count ; value: 5.49 µM
C[C@H]1[C@H](O)[C@@H](CO)O[C@H]1n1cc(Br)c(N)nc1=O ; strain: AD169 ; method: plaque count ; value: >100 µg/mL
N#Cc1ccn2cc(-c3ccccc3)cc2c1 ; strain: AD169 ; method: plaque count ; value: >100 µM
CCc1cn([C@@H]2O[C@H](CO)[C@@H](O)[C@@H]2O)c(=S)[nH]c1=O ; strain: 93-1R ; method: plaque count ; value: >213 µM
O[C@@H]1[C@H](O)[C@H](O)CO[C@H]1n1c(Br)nc2cc(Cl)c(Cl)cc21 ; strain: ACVRB (L802M) ; method: plaque count ; value: 1.4 µM
Nc1nc2c(ncn2COC(CO)CO)c(=O)[nH]1 ; strain: Isolate T1337 ; method: plaque count ; value: 2.51 µM
CCCCN1C(=O)c2ccccc2N(CCc2ccccc2)S1(=O)=O ; strain: AD169 ; method: plaque count ; value: 19.1 µM
FC(F)(F)c1cc(Cl)c2cc(-c3ccccc3)cn2c1 ; strain: AD169 ; method: plaque count ; value: >100 µM
CCCCN1C(=O)c2ccccc2N(C(=O)c2ccc(Br)cc2)S1(=O)=O ; strain: AD169 ; method: plaque count ; value: 2 µM
C=Cc1cn([C@H]2C[C@H](O)[C@@H](CO)O2)c(=S)[nH]c1=O ; strain: T-137 ; method: plaque count ; value: >277.6 µM

A second listing of 3 rows from above:

smiles,strain,method,value
COc1ccccc1CNC(=O)C1=Cc2ccncc2CC1,D16,plaque count,23.7 µM
Nc1nc(=S)n([C@@H]2O[C@H](CO)[C@@H](O)[C@@H]2O)cc1CO,93-1R,plaque count,98.8 µM
CCCCCCCCCCCCCCCCCCOCCOP1(=O)CO[C@@H](Cn2ccc(N)nc2=O)CO1,759D100 drug-resistant mutant,plaque count,0.015 µM